Test results as given in paper PMC8958504 (Journal of Medicinal Chemistry, 2022).

Test system: rat primary cortical neurons
Assay: Neuroprotection against OA-induced toxicity in rat primary cortical neuronal cultures (MTT)
Settings: OA 10 nM alone

For `C=C1[C@@H](O)[C@@H]2O[C@]3(CC[C@H](/C=C/[C@@H](C)[C@@H]4CC(C)=C[C@@]5(O[C@H](C[C@@](C)(O)C(=O)O)CC[C@H]5O)O4)O3)CC[C@H]2O[C@@H]1[C@@H](O)C[C@H](C)[C@H]1O[C@@]2(CCCCO2)CC[C@H]1C`, which “reduction of cell viability by the toxin” value is on record?
Its value is 50%.
